Data taken from ChEMBL document CHEMBL3988442, “University of Dundee, Small-Polar-MMV Screening Library” (2021).

The filed quantity is “Percent Effect” (%). How 0% and 100% were set is not recorded. Most values in the screen are low, and negative values occur. Many other results are left out here, so strong results are more common than in the screen. Two or more numbers in one place are separate tests of the same structure; such repeats can differ widely.

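Whole-cell growth test on Mycobacterium tuberculosis, read after 3 days in glucose-containing 7H9 medium; the read-out is not stated. Compounds at 50 µM. Higher reads as more growth inhibition (inferred: compounds with an IC50 in retests scored well above the rest). Of about 69,000 compounds tested this way, about 760 (1.1%) reached 50% or more in at least one test.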

| Compound | Percent Effect |
|---|---|
| `CCN(CC(O)c1ccc(C)cc1)C(=O)NC(C)C` (stereo not drawn) | -10.19% |
| `Fc1cccc(CN2CCC(c3noc(-c4ccccn4)n3)CC2)c1F` | 17.87% |
| `Cc1ncc(-c2ccnc(N3CCCCCC3)n2)c(-c2cccnc2)n1` | -20.63% |
| `CCc1ccccc1CNC(=O)NCc1cnn(C)c1` | 5.681% & 21.28% |
| `O=C(c1ccnc(N2CCOC(c3ccc(Cl)cc3)C2)c1)N1CCCC1` (stereo not drawn) | 11.25% |
| `COc1ccc(C[C@H]2CNCC[C@@H]2OCC2CC2)cc1` | -7.603% |
| `Cc1cc(C(O)CCNC(=O)COc2ccccc2F)c(C)o1` (stereo not drawn) | 51% & 27.78% |
| `O=C(CN(Cc1ccccc1)CC1CCOCC1)Nc1nccs1` | 5.21% |
| `CC(C)COc1cncc(NCC(O)c2ccco2)n1` (stereo not drawn) | -21.23% |
| `Cc1nc(C2CCCN2Cc2cc(Cl)c3c(c2)OCCCO3)no1` (stereo not drawn) | 56.52% |
| `Cc1cc(C)n(C2CN(CC(=O)N(C)Cc3ccco3)C2)n1` | -2.426% |
| `CS(=O)(=O)N1CCC(Nc2ccc(C#N)c(C(F)(F)F)c2)CC1` | -9.92% |
| `CCc1cn[nH]c1C1CCN(c2cc(C)c3cccc(OC)c3n2)CC1` | 53.09% |
| `NC(=O)c1nnn(-c2ccc(Br)cc2)n1` | 16.02% |
| `COc1ccc(C[C@H]2CN(C(=O)c3ccncc3)CC[C@@H]2OC)cc1.O=C(O)C(F)(F)F` | -27.32% |
| `CC(=O)Nc1cc(C2CC2)nn1-c1nc(C)c(C)c(=O)[nH]1` | 24.75% |
| `O=C(NCCN1CCOC1=O)c1cc(-c2ccccc2)on1` | -5.156% & -50.55% |
| `O=C(NC1CCN(c2ncccn2)CC1)c1sccc1C1CC1` | 2.093% |
| `Cc1csc(CNC(=O)N2CCN(Cc3ccco3)CC2)n1` | 0.3863% |
| `CC(C)(NC(=O)c1ccc(-c2ccc(F)cc2)s1)C(N)=O` | 6.402% & -3.678% |
| `CCN(Cc1ccccc1)C(=O)CCN1C[C@@H](C(=O)O)[C@H](C2CC2)C1` | -14.9% & 15.43% |
| `COc1cc(C)sc1C(=O)N1CCC(Nc2cccnc2)CC1` | 70.87% |
| `CS(=O)(=O)Cc1ccccc1NCc1cc(Cl)ccc1Cl` | 33.16% |
| `CC(C)n1c(=O)nc2n1C(=O)N(c1ccccc1)C2` | -5.225% & 17.14% |
| `CCC(NS(=O)(=O)N1CCOCC1)c1ccccc1OC` (stereo not drawn) | -9.334% & -1.575% |
| `Cc1ccccc1CN1CCC2(COCc3cnc(N(C)C)nc32)C1.O=C(O)C(F)(F)F` (stereo not drawn) | 53.3% |
| `COc1ncccc1C(=O)NC1CCOc2ccccc21` (stereo not drawn) | -6.081% |
| `CC(C(=O)NCCOc1ccccc1)n1cncn1` (stereo not drawn) | -20.33% |
| `[H][C@]12CN(C(=O)c3ccno3)CCN1C(=O)N(Cc1ccc(OC)cc1)C2` | 56.39% & -19.87% |
| `Br.Cc1ccc(N(CC(=O)c2ccc(Br)cc2)C2=NCCCCC2)cc1` | 95.67% & 90.3% |
| `CC(=O)c1c(F)cccc1N1CCC(Cc2cccnc2)CC1` | 51.31% |
| `O=S(=O)(NCCNc1ccc(-n2cccn2)nn1)c1ccccc1` | 73.42% |
| `O=C(Nc1cnn(COc2ccc(F)cc2Cl)c1)C1CC1` | 24.23% |
| `O=C(Cn1cccnc1=O)NCCc1ccc2c(c1)OCCO2` | -9.186% |
| `CNc1cc(C)nc(N2Cc3cnn(Cc4ccc(F)cc4)c3C2)n1` | 89.01% |
| `CN(C)c1ccc(CN(CCCn2ccnc2)Cc2c[nH]cn2)cc1.O=C(O)CC(O)(CC(=O)O)C(=O)O` | 51.7% |
| `COc1ccc(CNC(Cc2ccsc2)c2ccc(C)cn2)cc1OC.Cl` (stereo not drawn) | 27.04% |
| `CNC(=O)CS(=O)(=O)Cc1cc(Cl)c2c(c1)OCCO2` | 4.718% |
| `Cc1nc(N2CCCC2)nc2c1CCN(Cc1ccco1)CC2.O=C(O)C(F)(F)F` | 84.93% |
| `O=C1N(Cc2ccc(F)c(F)c2)CCCC12CCN(C1CCCC1)C2` (stereo not drawn) | 64.08% & 51.83% |
| `CSCCC1c2nc[nH]c2CCN1Cc1ccccc1C(F)(F)F` (stereo not drawn) | 18.5% |
| `CC(=O)N1CCCC1c1cccc(Cc2ccccc2F)n1` (stereo not drawn) | 62.97% |
| `CCC(C)(O)CNc1ccc(S(=O)(=O)C(F)F)cc1` (stereo not drawn) | -7.101% |
| `O=C1COC2(CCN(Cc3ccco3)CC2)CN1Cc1cccnc1` | -4.174% |
| `O=C(Cc1ccccc1Cl)N1CCN(CC(O)COCCO)CC1` (stereo not drawn) | 17.14% |
| `CCOC(=O)c1ccc(N2CCN(Cc3c(C)nn(C)c3Cl)CC2)nc1` | 16.89% & 23.31% |
| `CCS(=O)(=O)NCCNc1cc(-n2cccc2)ncn1` | 8.41% & 18.33% |
| `CCc1cnc(N2CCN(Cc3ccon3)CC2)s1` | 53.93% |
| `CCc1noc(CNc2cc3c(cc2Cl)OCCCO3)n1` | 38.11% & 25.23% |
| `c1cncc(-c2nc3c(c(NCC4(c5ccncc5)CC4)n2)CCC3)c1` | 28.54% |
| `O=C(CC(SC1CCCCC1)C(=O)O)c1ccc(Cl)cc1` (stereo not drawn) | 9.413% & 8.927% |
| `CNc1cc(C)nc(N2C[C@H](C3CC3)[C@@H](N)C2)n1` | 9.983% |
| `CCc1ccccc1OC1CN(C(=O)c2cccs2)C1` | 36.7% |
| `CC(NC(=O)c1cc(-c2cccc(Cl)c2)no1)C(=O)N(C)C` (stereo not drawn) | 3.798% |
| `O=C(NC1CC1)c1cc(NC(=O)N2CCCC(O)C2)ccc1Cl` (stereo not drawn) | -23.08% |
| `Cc1ccc(CN2CCC3(CCCN(S(C)(=O)=O)C3)C2)o1` (stereo not drawn) | 11.93% |
| `COc1ccnc(N2CCN(C(=O)Cc3ccn(C(C)C)n3)CC2)n1` | 11.43% |
| `CCNC(=O)CNS(=O)(=O)c1cc(Br)ccc1F` | -21.04% |
| `CSc1ccc(OCCN2CCNC(=O)CC2)cc1` | 14.83% |
| `CC(C)NC(=O)C(C)S(=O)(=O)c1cc2c(cc1Cl)OCCO2` (stereo not drawn) | 3.789% |
| `Cc1nccn1CCCNc1ccc(Cl)c(C#N)n1` | -4.38% |
| `Cc1cc(C(=O)NCC(C)N2CCc3ccccc32)no1` (stereo not drawn) | 41.89% |
| `CN(C(=O)Cc1ccn(C)c1)C1CCCN(C2Cc3ccccc3C2)C1` (stereo not drawn) | -5.221% |
| `CCOC(=O)c1cc(C(C)(O)CCC=C(C)C)on1` (stereo not drawn) | 88.78% & 108.4% |
| `CNC(=O)NC(C)c1nc(-c2ccc(Br)cc2)no1` (stereo not drawn) | -10.18% |
| `CC(C)N1CCC2(CCCN(Cc3ccc(F)cc3)C2=O)C1` (stereo not drawn) | 23.3% |
| `N#Cc1cccc(CN2C(=O)C3(CCNCC3)Nc3ccccc32)c1` | 27.08% |
| `CN1CCC(CNC(=O)c2cccc(C(F)(F)F)c2)c2ccccc21` (stereo not drawn) | 51.37% & 47.98% |
| `COc1ccc(C(=O)N2CCOC(Cc3cccc(C(F)(F)F)c3)C2)o1` (stereo not drawn) | 73.12% & 62.47% |
| `CC(Cn1cc(Br)cn1)C(=O)Nc1ccc(Cl)cn1` (stereo not drawn) | 56.17% |
| `COc1ccccc1CNC(=O)CNCCn1cc(C)cn1` | 13.62% |
| `OCC(CO)Nc1ccc2ccc(Cl)c(Cl)c2n1` | -2.39% |
| `CC(=O)NCc1noc2c1CN(Cc1cnn(C)c1)CC2` | 0.3226% & -5.495% |
| `O=C(c1cc(-c2cccs2)on1)N1CCCCC1Cn1cccn1` (stereo not drawn) | 3.955% |
| `COCC(C)(CCO)NC(=O)Nc1cccc(F)c1C` (stereo not drawn) | 17.13% |
| `CC(NCc1ccc(OCC(N)=O)cc1)c1ccc(Cl)c(Cl)c1.Cl` (stereo not drawn) | 56.47% |
| `CO[C@H]1CCN(c2nnc(C)s2)C[C@@H]1Cc1ccccc1.O=C(O)C(F)(F)F` | 34.59% & 46% |
| `CN(CCS(=O)(=O)c1cc(Cl)ccc1Cl)CC(N)=O` | 42.16% & 45.21% |
| `CCc1ccc(-c2cn(CCSc3ncn[nH]3)nn2)nc1` | -14.11% |
| `Cc1n[nH]cc1CNCC(c1ccsc1)N(C)C` (stereo not drawn) | -3.445% & 53.05% |
| `CCn1cncc1Cn1ncc2ccccc2c1=O` | 27.38% & -2.759% |
| `CC(C)c1cc(C(=O)NCCCN(C)C)nc(N2CCCC2)n1` | 68.85% |
| `CN(Cc1ccc(F)cc1F)CC(C)(CO)CO` | 19.02% |
| `O=C(Cc1ccc2c(c1)CCCC2)Nc1cccnc1N1CCSCC1` | 84.21% |
| `COc1ccc(C[C@H]2CN(c3nnc(C)s3)CC[C@H]2OC)cc1.O=C(O)C(F)(F)F` | 49.83% & 51.45% |
| `O=C(Nc1cccnc1)C1Cc2nc(-c3ccsc3)sc2N1CC1CC1.O=C(O)C(F)(F)F` (stereo not drawn) | -12.01% |
| `CC(=O)Nc1nc(COc2nc(C)no2)cs1` | -18.44% |
| `O=S(=O)(NCC1CCOC1)N1CCc2ccccc2C1` (stereo not drawn) | -11.13% |
| `COC(=O)C(NC(=O)c1ccc(N(C)C)nc1)c1ccccc1` (stereo not drawn) | 44.87% & 55.96% |

Some entries from above, unchanged:

{"compound": "O=C(Cn1cccnc1=O)NCCc1ccc2c(c1)OCCO2", "Percent Effect": -9.186}
{"compound": "CC(=O)Nc1nc(COc2nc(C)no2)cs1", "Percent Effect": -18.44}
{"compound": "O=C(Cc1ccccc1Cl)N1CCN(CC(O)COCCO)CC1", "stereo": "stereo not drawn", "Percent Effect": 17.14}
{"compound": "CC(=O)N1CCCC1c1cccc(Cc2ccccc2F)n1", "stereo": "stereo not drawn", "Percent Effect": 62.97}
{"compound": "CN1CCC(CNC(=O)c2cccc(C(F)(F)F)c2)c2ccccc21", "stereo": "stereo not drawn", "Percent Effect": "51.37 & 47.98"}
{"compound": "CC(C)N1CCC2(CCCN(Cc3ccc(F)cc3)C2=O)C1", "stereo": "stereo not drawn", "Percent Effect": 23.3}
{"compound": "CC(C(=O)NCCOc1ccccc1)n1cncn1", "stereo": "stereo not drawn", "Percent Effect": -20.33}
{"compound": "N#Cc1cccc(CN2C(=O)C3(CCNCC3)Nc3ccccc32)c1", "Percent Effect": 27.08}
{"compound": "CCc1cn[nH]c1C1CCN(c2cc(C)c3cccc(OC)c3n2)CC1", "Percent Effect": 53.09}